Source: US20220226282A1 (priority 2021, published 2022)

Protein sequences, listed by entry. Tags and fused reporters are not part of them. Residues count along the entry.
UniProt P0DPI0, 2-448 limits assumed: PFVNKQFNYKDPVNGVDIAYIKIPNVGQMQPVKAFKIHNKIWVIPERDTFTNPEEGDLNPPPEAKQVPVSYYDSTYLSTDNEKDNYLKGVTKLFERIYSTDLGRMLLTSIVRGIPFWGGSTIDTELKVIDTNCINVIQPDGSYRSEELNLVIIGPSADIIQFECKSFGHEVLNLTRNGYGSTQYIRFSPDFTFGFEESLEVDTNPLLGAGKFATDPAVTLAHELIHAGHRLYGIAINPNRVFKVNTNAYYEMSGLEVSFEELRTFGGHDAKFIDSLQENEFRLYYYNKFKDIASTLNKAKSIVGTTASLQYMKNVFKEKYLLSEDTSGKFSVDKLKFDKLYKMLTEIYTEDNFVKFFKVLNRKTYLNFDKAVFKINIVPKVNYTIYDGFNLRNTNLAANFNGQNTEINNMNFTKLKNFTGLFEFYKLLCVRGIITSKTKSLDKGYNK

Molecular target: BoNT/A LC (Clostridium botulinum, UniProt P0DPI0)
Assay: FRET peptide substrate-based BoNT/A LC endopeptidase assay
Assay type: biochemical, C. botulinum
Conditions: more elaborate testing of selected inhibitors

Compound: O=c1ccc2cc3c(-c4ccc([N+](=O)[O-])cc4)coc3cc2o1 [Compound 1, 3-(4-nitrophenyl)-7H-furo[3,2-g]chromen-7-one]
- effectiveness against BoNT/A endopeptidase: high effectiveness
